Anti-infective test results gathered from many reports (values: NIAID ChemDB through PubChem).

Shared fields: tests in culture; organism: HIV-2; endpoint: EC50

ECn: concentration that inhibits the pathogen or its effect by n%. An empty or dashed field is not shown. Rows are shuffled and stem from different studies.

compound | strain or isolate | method | cells | result
C=CCNc1c(N=Nc2ccc(Cl)cc2)c(N)nc(=O)n1C | ROD | MTT | MT-4 | >14.23 µM
CC1(C)[C@@H](CCO)C[C@H]1n1cnc2c(N)nc(N)nc21 |  | cytopathic effect | MT-4 | >250 µg/mL
COC(=O)/C=C1\S/C(=N/N=C/c2ccc(OCc3ccccc3)cc2)NC1=O | ROD | cytopathic effect / MTT | MT-4 | >97.45 µM
CCn1c(=O)cnn([C@H]2C[C@H](O)[C@@H](CO)S2)c1=O | ROD | syncytia | CEM | >100 µM
C[C@H](CC1CNC2C1CC(N)CN2N)OCP(=O)(O)O | ROD | cytopathic effect / MTT | MT-4 | >100 µg/mL
Cn1c([S-])nc2nc(-c3ccccc3)c(-c3ccccc3)nc2c1=O.Cn1c([S-])nc2nc(-c3ccccc3)c(-c3ccccc3)nc2c1=O.[O]=[V+2] | ROD | cytopathic effect | MT-4 | 18.95 µg/mL
Cc1cn([C@@H]2O[C@@H]3CN[C@@]4(O)CS(=O)(=O)O[C@@]34[C@H]2O[Si](C)(C)C(C)(C)C)c(=O)[nH]c1=O | ROD |  | MT-4 | >250 µM
Cc1ccc(NC(=S)N/N=C2\CC(C)CCC2C(C)C)cc1 | ROD |  | MT-4 | >2.6 µg/mL
Cn1c(Cl)c(N=Nc2ccc(Cl)cc2)c(N)nc1=O | ROD | MTT | MT-4 | >2.15 µM
N#Cc1ccc(Nc2nc(Oc3ccc(-c4ccc(C#N)cc4)c(C(F)(F)F)c3)c3sccc3n2)cc1 | ROD | MTT | MT-4 | >13.6 µM
CC(C)c1c(Cc2ccccc2)n(CC(N)=O)c(=O)[nH]c1=O | EHO | cytopathic effect / MTT | MT-4 | >100 µM
CCN(C)c1ncnc2c1ncn2C[C@@H](C)OCP(=O)(O)O | ROD | cytopathic effect / MTT | CEM | 4 µg/mL
CCCn1c(Sc2ccncc2)c([N+](=O)[O-])c(=O)[nH]c1=O | ROD |  | MT-4 | >76.63 µg/mL
CCOC(=O)CCCn1c(Cc2ccccc2)c(C(C)C)c(=O)[nH]c1=O | EHO | cytopathic effect / MTT | MT-4 | >65 µM
CC(C)[C@H](NC(=O)OCc1ccccc1)C(=O)N[C@@H](Cc1ccccc1)[C@@H](O)[C@@H](NCc1ccccc1)C(=O)N[C@H](C(=O)NCc1ccccc1)C(C)C | EHO | p24 | MT-4 | >3 µM
CCCn1c(Sc2cc[n+]([O-])cc2)c([N+](=O)[O-])c(=O)[nH]c1=O | ROD |  | MT-4 | >0.313 µg/mL
Cc1cc(Oc2nc(Nc3ccc(C#N)cc3)nc3ccsc23)ccc1-c1ccc(C#N)cc1 | ROD | MTT | MT-4 | 56.4 µM
N#Cc1ccc(-c2csc(N/N=C/c3ccncc3)n2)cc1 | ROD | MTT | MT-4 | >53.1 µM
Cc1cn([C@H]2C=C[C@@H](CO)O2)c(=O)[nH]c1=O |  | cytopathic effect | CEM + CEM/O | 0.12 µM
CCS[C@]12CS(=O)(=O)O[C@@]13[C@@H](CN2)O[C@@H](n1cc(C)c(=O)[nH]c1=O)[C@@H]3O | ROD |  | MT-4 | >250 µM
O=C(O)C(O[C@@H]1CC[C@H](n2cc(F)c(=O)[nH]c2=O)C1)P(=O)(O)O | ROD | syncytia | CEM | >250 µM
Nc1nc(NC2CC2)c2ncn(CCOCP(=O)(O)O)c2n1 | ROD | cytopathic effect / MTT | MT-4 | 0.1 µg/mL
CC(C)[C@H](NC(=O)[C@H](NCc1ccccc1)[C@H](O)[C@H](Cc1ccccc1)NC(=O)[C@@H](NC(=O)OCc1ccccc1)C(C)(C)C)C(=O)NCc1ccccc1 | ROD | p24 | MT-4 | 1.17 µM
CCn1cc(C(=O)O)c(=O)c2cc(F)c(N3CCN(c4ccccc4OC)CC3)c(OC(F)F)c21 | ROD | cytopathic effect / MTT | MT-4 | 0.3 µM
CC(C)[C@H](NC(=O)[C@H](NCc1ccc(Cl)cc1)[C@H](O)[C@H](Cc1ccccc1)NC(=O)[C@@H](NC(=O)OCc1ccccc1)C(C)(C)C)C(=O)NCc1nc2ccccc2[nH]1 | EHO | p24 | MT-4 | 0.263 µM
CSC1=NS(=O)(=O)N([C@@H]2O[C@H](COC(=O)c3ccccc3)[C@@H](OC(=O)c3ccccc3)[C@H]2OC(=O)c2ccccc2)C(=O)N1 | ROD | syncytia | CEM + CEM-SS | >40 µg/mL
COC(=O)CC(OP(=O)(OC[C@@H]1C=C[C@H](n2cc(C)c(=O)[nH]c2=O)O1)OC(CC(=O)OC)c1ccc(OC(C)=O)cc1)c1ccc(OC(C)=O)cc1 |  |  | CEM | 0.3 µM
Cc1cn([C@H]2C=C[C@@H](COC(=O)CC3(C)C[C@](C)(O)CO3)O2)c(=O)[nH]c1=O |  | cytopathic effect | MT-2 | 4 µM
CC1(C)[C@@H](CCO)C[C@H]1n1cnc2c(=O)[nH]c(N)nc21 |  | cytopathic effect | MT-4 | >250 µg/mL
Nc1cnn([C@H]2C[C@H](O)[C@@H](CO)S2)c(=O)n1 | ROD | syncytia | CEM | >100 µM
Cc1cn([C@@H]2O[C@@H]3CN[C@@]4(OCCOc5ccccc5)CS(=O)(=O)O[C@@]34[C@H]2O)c(=O)[nH]c1=O | ROD |  | MT-4 | >250 µM
CCCCCCn1c(=O)cnn([C@H]2C[C@H](O)[C@@H](CO)S2)c1=O | ROD | syncytia | CEM | >100 µM
CC(=O)Oc1ccc(COP(=O)(OCc2ccc(OC(C)=O)cc2)OC[C@@H]2C=C[C@H](n3cc(C)c(=O)[nH]c3=O)O2)cc1 |  |  | CEM | 0.33 µM
O=[N+]([O-])c1ccc(/C=N/Nc2nc(-c3ccc([N+](=O)[O-])cc3)cs2)cc1 | ROD | MTT | MT-4 | >73.58 µM
Nc1nc(Sc2ccccc2)c([N+](=O)[O-])c(=O)[nH]1 | ROD |  | MT-4 | >88.07 µg/mL
Cc1cn([C@@H]2O[C@@H]3CN[C@@]4(OCCO)CS(=O)(=O)O[C@@]34[C@H]2O)c(=O)[nH]c1=O | ROD |  | MT-4 | >250 µM
CSC1=NS(=O)(=O)N([C@@H]2O[C@H](COC(C)=O)[C@@H](OC(C)=O)[C@H](OC(C)=O)[C@H]2OC(C)=O)C(=O)N1 | ROD | syncytia | CEM + CEM-SS | >200 µg/mL
CCOC(=O)c1ccc(-c2ccc(N=Nc3c(N)nc(=O)n(C)c3-c3ccc(C(=O)OCC)cc3)cc2)cc1 | ROD | MTT | MT-4 | >28.24 µM
CCS[C@]12CS(=O)(=O)O[C@@]13[C@@H](CN2)O[C@@H](n1cc(C)c(=O)[nH]c1=O)[C@@H]3O[Si](C)(C)C(C)(C)C | ROD |  | CEM | >50 µM
CC(C)[C@H](NC(=O)OCc1ccccc1)C(=O)N[C@@H](Cc1ccccc1)[C@@H](O)[C@@H](NCc1ccc(Br)cc1)C(=O)N[C@H](C(=O)NCc1nc2ccccc2[nH]1)C(C)C | ROD | p24 | MT-4 | 1.2 µM
Nc1nc(N2CCCCC2)c2ncn(CCOCP(=O)(O)O)c2n1 | ROD | cytopathic effect / MTT | MT-4 | 3 µg/mL
Cn1c(-c2ccc(F)c(F)c2)cc(N)nc1=O | ROD | MTT | MT-4 | >16.01 µM
N#Cc1ccc(Nc2nc(Oc3ccc(-c4ccc(C#N)cc4)c([N+](=O)[O-])c3)c3sccc3n2)cc1 | ROD | MTT | MT-4 | >34.4 µM
CC(C)=CCN1CC(C)Cn2c(=S)[nH]c3cccc1c32 | ROD | cytopathic effect / XTT | CEM(SS) + CEM-SS | >71.2 µM
CCCn1c(Sc2ccccc2)c([N+](=O)[O-])c(=O)[nH]c1=O | ROD |  | MT-4 | >72.9 µg/mL
CC1(C)[C@@H](CCO)C[C@H]1n1nnc2c(=O)[nH]cnc21 |  | cytopathic effect | CEM | >20 µg/mL
Cc1ccnc2c1NC(=O)c1cccnc1N2C1CC1 | ROD |  | MT-4 | >40 µg/mL
O=C1c2ccccc2N(Cc2cccc3ccccc23)S(=O)(=O)N1Cc1ccccc1 | ROD | p24 | MT-4 | >125 µM
O=c1[nH]c(=S)cnn1[C@H]1C[C@H](O)[C@@H](CO)S1 | ROD | syncytia | CEM | >100 µM
COc1cc(Oc2nc(Nc3ccc(C#N)cc3)nc3ccsc23)ccc1-c1ccc(C#N)cc1 | ROD | MTT | MT-4 | >116.9 µM
CC(C)[C@H](NC(=O)OCc1ccccc1)C(=O)N[C@@H](Cc1ccccc1)[C@@H](O)[C@@H](NCc1ccccc1)C(=O)N[C@H](C(=O)NCc1nc2ccccc2[nH]1)C(C)C | ROD | p24 | MT-4 | 1.1 µM
COC(=O)/C=C1\S/C(=N/N=C/c2cccc(OC)c2)NC1=O | ROD | cytopathic effect / MTT | MT-4 | >61.3 µM
CCOC(=O)c1nnsc1NCc1ccccc1N | ROD |  |  | >290 µM
C#CCO[C@]12CS(=O)(=O)O[C@@]13[C@@H](CN2)O[C@@H](n1cc(C)c(=O)[nH]c1=O)[C@@H]3O[Si](C)(C)C(C)(C)C | ROD |  | MT-4 | >25 µM
Nc1ccc([C@H]2CC(=O)[C@@H](CO)O2)c(F)c1 |  |  | CEM | >250 µM
CCCn1c(Cl)c([N+](=O)[O-])c(=O)[nH]c1=O | ROD |  | MT-4 | >62.4 µg/mL
CC(C)[C@H](NC(=O)[C@H](Cc1ccccc1)C[C@H](O)[C@H](Cc1ccccc1)NC(=O)OC(C)(C)C)C(=O)N[C@@H](Cc1ccccc1)C(=O)N1CCOCC1 | ROD | RT activity | PBL | 0.8 µM
COC(=O)/C=C1\S/C(=N/N=C/c2c(F)cccc2Cl)NC1=O | ROD | cytopathic effect / MTT | MT-4 | >52.7 µM
C[C@H](C[n+]1c[nH]c2c(Nc3ccccc3)nc(N)nc21)OCP(=O)(O)O | ROD | cytopathic effect / MTT | MT-4 | 8 ± 2.9 µg/mL
Cn1c2ccccc2c2c1cc(C#N)c(=O)n2-c1ccc([N+](=O)[O-])cc1 |  | reporter gene | MT-4 | ~0.3 µM
N#Cc1ccc(Nc2nc(Oc3ccc(-c4ccc(C#N)cc4)c(C#N)c3)c3sccc3n2)cc1 | ROD | MTT | MT-4 | 1.4 µM
CC(C)[C@H](NC(=O)CCc1nc2ccccc2[nH]1)C(=O)N[C@@H](Cc1ccccc1)[C@@H](O)[C@@H](NCc1ccccc1)C(=O)N[C@H](C(=O)NCc1ccccc1)C(C)C | ROD | p24 | MT-4 | 0.665 µM
COC(=O)/C=C1\S/C(=N/N=C/c2cccc(Br)c2)NC1=O | ROD | cytopathic effect / MTT | MT-4 | >11.15 µM
CC(C)CN(C[C@@H](O)[C@H](Cc1ccccc1)NC(=O)O[C@H]1CO[C@H]2OCC[C@H]21)S(=O)(=O)c1ccc2c(c1)OCO2 | EHO | MTT | MT-2 | 0.0032 µM
CC1CCC(C(C)C)/C(=N/NC(=S)Nc2ccccc2)C1 | ROD |  | MT-4 | >108.1 µg/mL
CC(C)c1c(Cc2ccccc2)n(CCCO)c(=O)[nH]c1=O | EHO | cytopathic effect / MTT | MT-4 | >100 µM
COc1ccc(-c2ccc(N=Nc3c(N)nc(=O)n(C)c3N(Cc3ccccc3)Cc3ccccc3)cc2)cc1OC | ROD | MTT | MT-4 | >2.29 µM
CCOCn1c(Cc2ccccc2)c(C(C)C)c(=O)[nH]c1=O | EHO | cytopathic effect / MTT | MT-4 | >100 µM
Clc1ccc(-c2csc(N/N=C/c3ccncc3)n2)cc1 | ROD | MTT | MT-4 | >125 µM
CCCCO[C@]12CS(=O)(=O)O[C@@]13C(CN2)O[C@@H](n1cc(C)c(=O)[nH]c1=O)[C@@H]3O[Si](C)(C)C(C)(C)C | ROD |  | MT-4 | >10 µM
CC(C)c1c(Cc2ccccc2)n(CCCC(N)=O)c(=O)[nH]c1=O | EHO | cytopathic effect / MTT | MT-4 | >100 µM

A second listing of 9 rows from above:

compound | strain or isolate | method | cells | result
COc1ccc(-c2ccc(N=Nc3c(N)nc(=O)n(C)c3N(Cc3ccccc3)Cc3ccccc3)cc2)cc1OC | ROD | MTT | MT-4 | >2.29 µM
CCS[C@]12CS(=O)(=O)O[C@@]13[C@@H](CN2)O[C@@H](n1cc(C)c(=O)[nH]c1=O)[C@@H]3O | ROD |  | MT-4 | >250 µM
C[C@H](C[n+]1c[nH]c2c(Nc3ccccc3)nc(N)nc21)OCP(=O)(O)O | ROD | cytopathic effect / MTT | MT-4 | 8 ± 2.9 µg/mL
CCCCCCn1c(=O)cnn([C@H]2C[C@H](O)[C@@H](CO)S2)c1=O | ROD | syncytia | CEM | >100 µM
COC(=O)/C=C1\S/C(=N/N=C/c2cccc(OC)c2)NC1=O | ROD | cytopathic effect / MTT | MT-4 | >61.3 µM
CC(C)=CCN1CC(C)Cn2c(=S)[nH]c3cccc1c32 | ROD | cytopathic effect / XTT | CEM(SS) + CEM-SS | >71.2 µM
Cc1ccc(NC(=S)N/N=C2\CC(C)CCC2C(C)C)cc1 | ROD |  | MT-4 | >2.6 µg/mL
N#Cc1ccc(-c2csc(N/N=C/c3ccncc3)n2)cc1 | ROD | MTT | MT-4 | >53.1 µM
Cc1cn([C@@H]2O[C@@H]3CN[C@@]4(O)CS(=O)(=O)O[C@@]34[C@H]2O[Si](C)(C)C(C)(C)C)c(=O)[nH]c1=O | ROD |  | MT-4 | >250 µM